Assay results reported in PMC12116120, “Single-Domain Antibodies That Specifically Recognize Intact Capsids of Multiple Foot-and-Mouth Disease Serotype O Strains” (Vaccines, 2025).

Target: T1, FMDV strain O1/BFS 1860/UK/67 146S particles (untreated antigen) (Foot-and-mouth disease virus serotype …, UniProt P03305, strain)
T1 construct: copies: 60 + 60 + 60 + 60
Test: ELISA
Conditions: one partner purified

| Binder | binding result |
| --- | --- |
| M81F (VHH) VHH: QVQLQQSGGGLVQAGDPLTLSCAASGRTVENYAMGWFRQTPGKEPEFVAAISWWSGSRADYSDSVKGRFTISRDNAKKTLYLQMSSLQPEDTGVYYCAAEPGTYFAGRFESEYDYWGQGTLVTVSS | binds |
| M208F (VHH) VHH: QVQLQESGGGLVQAGGSLRLSCAASGRTFSSYAMGWFRQAPGKEREFVARINWSGGSTYYADSVKGRFTISRDNAKNTVYLQMNSLKPEDTAVYYCTAGFALPPSDYWGQGTRVTVSS | binds |
| M918F (VHH) VHH: QVQLQESGGGLVQAGGSLRLSCAASGRTFSSYAMGWFRQAPGSEREFVARISWSGGSTYYADSVKGRFTISRDNAKKTVYLQMNSLKPEDTAVYYCTAGFAYPPSDYWGQGTQVTVSS | binds |
| M170F (VHH) VHH: QVQLQESGGGLVQAGGSLRLSCAASGRTFSSYAMGWFRQAPGSEREFVARISWSGGSTYYADSVKGRFTISRDNAKNTVYLQMNSLKPEDTAVYYCTAGFALPPSDYWGQGTQVTVSS | binds |
| M915F (VHH) VHH: QVQLQESGGGLVQAGGSLRLSCAASGRTFSSYAMGWFRQAPGKEREFVARINWSGGSTYYADSVKGRFTISRDNAKNTVYLQMNSLKPEDTAVYFCTAGFALPPSDYWGQGTQVTVSS | binds |
| M210F (VHH) VHH: QVQLQESGGGLVQAGDALTLSCAASGRSVDNYAMGWFRQAPGKELEFVAAISWWSGSRTEYADSVKGRFTISRDNANGMVYLRMSSLRPEDTAVYYCAAERGTYFAGRSQDEYDDWGRGTQVTVSS | binds |
